Publication PMC7911889 (Viruses, 2021)

Target: SARS-CoV-2 3CL^pro (Severe acute respiratory syndrome coronavirus 2, UniProt P0DTD1)
Assay type: cell-based

Row | Structure (SMILES) | Effect on luciferase reporter activity / 3CL^pro inhibition (in words)
1 | COc1cccc2c1C(=O)c1c(O)c3c(c(O)c1C2=O)C[C@@](O)(C(=O)CO)C[C@@H]3O[C@H]1C[C@H](N)[C@H](O)[C@H](C)O1 [doxorubicin] | did not result in any significant change in luciferase reporter activity
2 | CC(C)CN(C[C@@H](O)[C@H](Cc1ccccc1)NC(=O)O[C@H]1CCOC1)S(=O)(=O)c1ccc(N)cc1 | no significant increase or decrease in luciferase activity
